Pooled drug test results. Numbers come from NIAID ChemDB, via PubChem.

Common to all: host cell toxicity; cell line: MT-2; read-out: CC50

CCn: concentration that lowers growth or viability of the cells by n%. Rows are shuffled and stem from different studies. An empty or dashed field is not shown.

structure,read by,result
Nc1nc2c(ncn2[C@H]2C=C[C@@H](CO)O2)c(=O)[nH]1,,40 µM
CSC1N=S(=O)(c2ccccc2)c2ccccc2N1,,87.6 µM
C[C@H](CCC(=O)O)[C@H]1CC[C@H]2[C@@H]3[C@H](OC(=O)/C=C/c4ccc(O)c(O)c4)C[C@@H]4C[C@H](OC(=O)/C=C/c5ccc(O)c(O)c5)CC[C@]4(C)[C@H]3C[C@H](OC(=O)/C=C/c3ccc(O)c(O)c3)[C@]12C,neutral red,>11.4 µM
Nc1nc(N)c2ncn([C@H]3CO[C@@H](CO)O3)c2n1,,>1000 µM
Cc1cn([C@H]2C[C@H](N=[N+]=[N-])[C@@H](CO)O2)c(=O)[nH]c1=O,,475 µM
CCO[C@H]1C[C@H](n2cc(C)c(=O)[nH]c2=O)O[C@@H]1COP(=O)(OCC(Cl)(Cl)Cl)OCC(Cl)(Cl)Cl,,200 µM
Nc1nc(=O)n(CCOCP(=O)(O)O)cc1F,propidium iodide,>100 µM
COc1ccc(S(=O)(=O)N(CC(C)C)C[C@@H](O)[C@H](Cc2ccc(OC)c(Cl)c2)NC(=O)O[C@H]2CO[C@H]3OCC[C@H]32)cc1,,35.7 µM
CC(C)CN(C[C@@H](O)[C@H](Cc1cc(F)cc(F)c1)NC(=O)O[C@H]1CCO[C@H]2OCC[C@H]21)S(=O)(=O)c1ccc2nc(NC(C)C)sc2c1,MTT,2.7 µM
CCCc1cc(=O)oc2c3c(c4c(c12)OC(C)(C)C=C4)O[C@H](C)[C@@H](C)[C@@H]3O,,8.9 µM
Nc1nc(=O)n([C@@H]2CC[C@H](CO)O2)cc1F,,>100 µM
COC(=O)N[C@H](C(=O)N[C@@H](Cc1ccccc1)[C@@H](O)CN(Cc1ccc(-c2ccccn2)cc1)NC(=O)[C@@H](NC(=O)OC)C(C)(C)C)C(C)(C)C,MTT,30.3 µM
Nc1ncnc2c1ncn2C[C@@H](CF)OCP(=O)(O)O,,>100 µM
CC(C)OC(=O)[C@H](C)NP(=O)(CO[C@H](C)Cn1cnc2c(N)ncnc21)Oc1ccccc1,XTT / absorbance,95 µM
O=C(/C=C/c1ccc(O)c(O)c1)NCCC[C@H](NC(=O)/C=C/c1ccc(O)c(O)c1)C(=O)O,neutral red,>43 µM
O=c1[nH]cnc2c1ncn2[C@H]1CC[C@@H](CO)O1,,>500 µM
CC(C)[C@H](NC(=O)N(C)Cc1ccccn1)C(=O)N[C@@H](Cc1ccccc1)[C@H](O)[C@H](O)[C@H](Cc1ccccc1)NC(=O)[C@@H](NC(=O)N(C)Cc1ccccn1)C(C)C,,>100 µM
CCN(CC)CCNc1cc(-c2cccs2)nc2ccccc12,ATP / luminescence,50 µM
Nc1ncnc2c1ncn2CCOCP(=O)(O)O,,160 µM
Cc1[nH]c2ccccc2c1CC(=O)N[C@@H](Cc1ccccc1)C(=O)N(C)c1ccccc1,MTT,>100 µg/mL
C=CCN1C(=O)N(CC=C)[C@H](Cc2ccccc2)[C@H](O)[C@@H](O)[C@H]1Cc1ccccc1,,93.1 µM
O=S1(c2ccccc2)=NC(=S)Nc2ccccc21,,>73 µM
CCCCCCCCCCCCCCCCCCOCCOP(=O)(O)COCCn1cnc2c(N)ncnc21,propidium iodide,0.018 µM
Nc1nc(N)c2ncn([C@H]3C=C[C@@H](CO)O3)c2n1,,>20 µM
Fc1nc(N2CCNCC2)c(F)c(Sc2ccc(Cl)cc2)c1F,ATP / luminescence,43.9 µM
Nc1ncnc2c1ncn2CCOCP(=O)(O)O,propidium iodide,157 µM
NC(=O)C(c1ccccc1)(c1ccccc1)C1CCCN(CCCOCc2ccccc2)C1,XTT,51 µM
CC(C)c1cc2c(c(O)c1O)[C@@]1(C(=O)O)CCCC(C)(C)C1CC2,,70.3 µM
O=C(/C=C/C=C/c1ccc([N+](=O)[O-])cc1)[Se]c1ccccc1,MTT,29.3 µM
Cc1cn([C@H]2C[C@H](F)[C@@H](CP(=O)(O)O)O2)c(=S)[nH]c1=O,,>200 µM
CCCCCCCCCCCCCCCCOCCCOP(=O)(O)COCCn1cnc2c(N)nc(N)nc21,propidium iodide,0.02 µM
NC(=O)C(c1ccccc1)(c1ccccc1)C1CCCN(CCOc2ccccc2)C1,XTT,54 µM
Cc1cn([C@H]2C[C@H](N=[N+]=[N-])[C@@H](CO)O2)c(=O)[nH]c1=O,,>200 µM
Nc1ccn([C@H]2CC[C@@H](CO)O2)c(=O)n1,,>10 µM
NC(=O)C(c1ccccc1)(c1ccccc1)[C@H]1CCCN(CCc2ccc3c(c2)CCC3)C1,XTT,6 µM
CC(C)OC(=O)[C@H](C)N[P@@](=O)(CO[C@H](C)Cn1cnc2c(N)ncnc21)Oc1ccccc1,XTT / absorbance,>100 µM
Nc1nc(N2CCCC2)c2ncn([C@H]3C=C[C@@H](CO)O3)c2n1,,>20 µM
O=C(/C=C/c1ccc(O)c(O)c1)NCC(NC(=O)/C=C/c1ccc(O)c(O)c1)C(=O)O,neutral red,>35 µM
Cc1cn([C@H]2C=C[C@@H](CO)O2)c(=O)[nH]c1=O,,98 µM
OC(CNCC1CCCO1)Cn1c2ccc(Br)cc2c2cc(Br)ccc21,ATP / luminescence,10.8 µM
CS(=O)(=O)O[C@H]1C[C@H](n2ccc(=O)[nH]c2=O)O[C@@H]1COP(=O)(OCC(Cl)(Cl)Cl)OCC(Cl)(Cl)Cl,,>200 µM
Cc1c(O)cccc1C(=O)N[C@@H](CSc1ccccc1)[C@H](O)CN1C[C@H]2CCCC[C@H]2C[C@H]1C(=O)NC(C)(C)C,MTT,11.1 µM
COc1cc(/C=C/C(=O)[Se]c2ccccc2)ccc1O,MTT,35.1 µM
COC(=O)N[C@H](C(=O)N[C@@H](Cc1ccccc1)[C@@H](O)CN(Cc1ccc(-c2ccccn2)cc1)NC(=O)[C@@H](NC(=O)OC)C(C)(C)C)C(C)(C)C,MTT,31.5 µg/mL
Nc1ccn([C@H]2CC[C@@H](CO)O2)c(=O)n1,,>100 µM
CCCCCCCCCCNC(=O)[C@H](Cc1ccc(O)c(O)c1)[C@@H](Cc1ccc(O)c(O)c1)C(=O)O,neutral red,>34 µM
Cc1cccc(C)c1OCC(=O)N[C@@H](Cc1ccccc1)[C@@H](O)C[C@H](Cc1ccccc1)NC(=O)[C@H](C(C)C)N1CCCNC1=O,,26.7 µM
Nc1nc(NC2CC2)c2ncn([C@H]3C=C[C@@H](CO)O3)c2n1,,>20 µM
Nc1ncnc2c1ncn2CCOCP(=O)(O)O,,225 µM
O=C1N=S(=O)(c2ccccc2)c2ccccc2N1,,>365 µM
O=C(/C=C/c1ccc(O)c(O)c1)[Se]c1ccccc1,MTT,33.4 µM
O=C(/C=C/c1ccc(O)c(O)c1)NCC(OC(=O)/C=C/c1ccc(O)c(O)c1)C(=O)O,neutral red,>175 µM
Nc1ccn([C@H]2CC[C@@H](CO)O2)c(=O)n1,,176.3 µM
COc1ccc(/C=C/C=C/C(=O)[Se]c2ccccc2)cc1,MTT,28.5 µM
NC(=O)C(c1ccccc1)(c1ccccc1)[C@H]1CCCN(CCc2ccc3c(c2)CCO3)C1,XTT,53 µM
O=C(/C=C/c1ccccc1)[Se]c1ccccc1,,33.2 µM
CC(C)CN(C[C@@H](O)[C@H](Cc1ccccc1)NC(=O)O[C@H]1CCOC1)S(=O)(=O)c1ccc(N)cc1,MTT,42.2 µM